Reference: patent US20240043504A1 (published 2024)

B1: mAb10920 (antibody, V domains shown)
VH: QVQLVESGGGVVQPGRSLRLSCAASGFTFSYYGMHWVRQAPGKGLEWVAVIWYDGSNKFYADSVKGRFTISRDNSKNTLYLQMNSLRAEDTAVYYCAAARPGYYYGMDVWGQGTTVTVSS
VL: DIQMTQSPSSLSASVGDRVTITCRASQGISNYLAWFQQKPGKAPNSLIYAASSLQRGVPSKFSGSGSGTDFTLTISSLQPEDFATYYCQQYNSYPRTFGQGTKVEIKR
B2: mAb10939 (antibody, V domains shown)
VH: EVQLVESGGGLVQPGGSLRLSCAASGLTVSSNYMNWVRQVPGKGLEWVSVIYSGGSKFYVDSVKGRFTISRHNSKNTLYLQMNSLRPEDTAVYYCTRDAQYYGMDVWGQGTTVTVSS
VL: DIQMTQSPSSLSASVGDRVTITCRASQSISTYLHWYQQKPGEAPKLLIYAASSLQSGVPSRFSGSGSGTDFTLTISSLQPEDFATYYCQQSYSTPPEIFGQGTKLEIKR
B3: mAb10913 (antibody, V domains shown)
VH: EVQLVESGGGLVQPGGSLRLSCAASGFTFRNYEMNWVRQAPGKGLEWVSYITSSGSTMYYADSVKGRFTISRDNAKNSLYLQMNSLRAEDTAVYYCARDGFYYYYAMDVWGQGTTVTVSS
VL: QSVLTQPPSVSAAPGQKVTISCSGSSSNIGNNYVSWYQQLPGTAPKLLIYDNNKRPSGIPDRFSGSKSGTSATLGITGLQTGDEADYYCGTWDSSLSVGRVFGTGTKVTVLG
B4: mAb10982 (antibody, V domains shown)
VH: EVQLVESGGGLVQPGGSLRLSCAASGLTVSSNYMSWVRQAPGKGLEWVSVIYSGGTTYYADSVKGRFTISRHNSKNTLSLQMNSLRAEDTAVYYCARGEGANYYGMDVWGQGTTVTVSS
VL: QSVLTQPPSVSGAPGQRVTISCTGSSSNIGTGYDVHWYQQLPGTAPKLLIYGNSNRPSGVPDRFSGSKSGTSASLAITGLQAEDEADYYCQSYDSSLSGYVVFGGGTKLTVLG
B5: mAb10932 (antibody, V domains shown)
VH: EVQLVESGGGLVQSGGSLRLSCAASGLTVSSNYMSWVRQAPGKGLEWVSVIYSGGSTFYSDSVKGRFTISRHNSKNTLYLQMNSLRAEDTAVYYCARARGDAFDIWGQGTMVTVSS
VL: DIQMTQSPSSLSASVGDRVTITCQASQGISNYLNWYQQKPGKAPKLLISDASNLETGVPSRFSGSGSGTDFTFTISSLQPEDIATYYCQQYDNLRFFTFGPGTKVDIKR
B6: mAb10930 (antibody, V domains shown)
VH: EVQLVESGGGLVQPGRSLRLSCAASGFTFDDYAMYWVRQAPGKGLEWVSGISWNSGSIGYADSVKGRFTISRDNAKNSLYLQMNSLRAADTALYYCAKDKDWNSRGYYYYGMDVWGQGTTVTVSS
VL: not shown
B7: mAb10938 (antibody, V domains shown)
VH: EVQLVESGGGLVQPGGSLRLSCAVSGFTVSSNYMSWVRQAPGKGLEWVSLIYSGGSTFYADSVKGRFTISRHNSKNTLYLQMNSLRAEDTAVYYCAREGGYSYDYNYWGQGTLVTVSS
VL: DIQMTQSPSSLSASVGDRVTITCQASQDIRNYLNWYQQKPGKAPKLLIYDASNLETGVPSRFSGIGSGTDFTFTISSLQPEDIATYYCQQYDNLPITFGQGTRLEIKR
B8: mAb10933 (antibody, V domains shown)
VH: QVQLVESGGGLVKPGGSLRLSCAASGFTFSDYYMSWIRQAPGKGLEWVSYITYSGSTIYYADSVKGRFTISRDNAKSSLYLQMNSLRAEDTAVYYCARDRGTTMVPFDYWGQGTLVTVSS
VL: B7 VL with R30T, D50A, I65S, S77G, I96L, Q100G, R103K, L104V
B9: mAb10935 (antibody, V domains shown)
VH: EVQLVESGGGLVQPGGSLRLSCAASGFTVSSNYMSWVRQAPGKGLEWVSLIYSGGSTYYADSVKGRFTISRHNSKNTLYLQMNSLRSEDTAVYYCARVPLGDYYYGMDVWGQGTTVTVSS
VL: B7 VL with R30N, N31K, I65S, Y91S, I96L, Q100G, R103K, L104V
B10: mAb10914 (antibody, V domains shown)
VH: EVQLVESGGGLVQPGGSLRLSCAASGLIVSRNYMIWVRQAPGKGLEWVSVIYSGGSTFYADSVKGRFTISRHNSKNTLYLQMNSLRAEDTAVYYCARDLGTGGMDVWGQGTTVTVSS
VL: DIQLTQSPSFLSASVGDRVTITCWASQGISSYLAWYQQKPGKAPKLLIYAASTLQSGVPSRFSGSGSGTEFTLTISSLQPEDFATYYCQQLNSYPLTFGGGTKVEIKR
B11: mAb10939 (antibody, V domains shown)
VH: B2 VH
VL: B2 VL
B12: mAb10982 (antibody, V domains shown)
VH: B4 VH
VL: B4 VL
B13: mAb10985 (antibody, V domains shown)
VH: EVQLVESGGGLVQPGRSLRLSCAASGFTFDDYAMHWVRQAPGKGLEWVSGISWNRGSIGYADSVKGRFTISRDNAKNSLYLQMSSLRAEDTALYYCAKDGERWDSVVVPSARNGMDVWGQGTTVTVSS
VL: B4 VL with T31A, Y100S, V101Y, G105T, L109V
B14: mAb10922 (antibody, V domains shown)
VH: EVQLVESGGGLVQPGGSLRLSCAASGFTFSIYEMNWVRQAPGKGLEWVSYITSSGTTIYYADSVKGRFTISRDNAKNSLYLQMNSLRAEDTAVYYCASSSSSGYYFDYWGQGTLVTVSS
VL: not shown
B15: mAb10930 (antibody, V domains shown)
VH: B6 VH
VL: not shown
B16: mAb10984 (antibody, V domains shown)
VH: EVQLVESGGGLVQPGGSLRLSCAASGLTVNRNYMSWVRQAPGKGLEWVSLIYSGGSTYYADSVKGRFTISRDNSKNTLYLQMNSLRLEDTAVYYCARGELGIPYGMDVWGQGTTVTVSS
VL: QSVLTQPPSVSAAPGQKVTISCSGSSSNIGNNYVSWYQQLPGTAPKLLIYDNNKRPSGIPDRFSGSKSGTSATLGITGLQTGDEADYYCGTWDSSLSAGVFGGGTKLTVLG
B17: mAb10934 (antibody, V domains shown)
VH: not shown
VL: B7 VL with R30W, L33I, E55K, I65S, Y91H, N93D, I96P, R103K, L104V
B18: mAb10938 (antibody, V domains shown)
VH: B7 VH
VL: B7 VL
B19: mAb10966 (antibody, V domains shown)
VH: EVQLVESGGGLVQPGGSLRLSCAASGLTVSSNYMSWVRQAPGKGLEWVSVIYSGGSTFYADSVKGRFTISRDNSKNTLYLQMNSLRPEDTAVYYCAREGRIAATGYGMDVWGQGTTVTVSS
VL: B7 VL with R30S, E55G, I65S, G66R, Q89H, I96Q, Q100P, R103K, L104V, E105D
B20: mAb10935 (antibody, V domains shown)
VH: B9 VH
VL: B7 VL with R30N, N31K, I65S, Y91S, I96L, Q100G, R103K, L104V
B21: mAb10971 (antibody, V domains shown)
VH: EVQLVESGGGLIQPGGSLRLSCAASGVTVSSNYMSWVRQAPGKGLEWVSVIYSGGSTFYSDSVKGRFSISRDNSKNTLYLQMNSLRAEDTAVYYCARDLYYYGMDVWGQGTTVTVSS
VL: DIQLTQSPSFLSASVGDRVTITCRASQGISTYLAWYQQKPGKAPKLLIYAASTLQSGVPSRFSGSGSGTEFTLTISSLQPEDFATYYCQQLDSYPGLTFGGGTKVEIKR
B22: mAb10989 (antibody, V domains shown)
VH: QVQLVQSGAEVKKPGASVKVSCKASGYIFTGYYMHWVRQAPGQGLEWMGWINPNSGGANYAQKFQGRVTLTRDTSITTVYMELSRLRFDDTAVYYCARGSRYDWNQNNWFDPWGQGTLVTVSS
VL: QSALTQPASVSGSPGQSITISCTGTSSDVGTYNYVSWYQQHPGKAPKLMIFDVSNRPSGVSDRFSGSKSGNTASLTISGLQAEDEADYYCSSFTTSSTVVFGGGTKLTVLG

target: MERS.mFc (mAb2663-L1) (MERS-CoV); experiment: Luminex, supernatant

Binder | MFI
B1 | 38 MFI
B2 | 41 MFI
B3 | 29 MFI
B4 | 64 MFI
B5 | 60 MFI
B6 | 29 MFI
B7 | 86 MFI
B8 | 22 MFI
B9 | 74 MFI
B10 | 86 MFI

target: MERS.hFc (mAb2664-L1) (MERS-CoV); experiment: Luminex, supernatant

Binder | MFI
B1 | 35 MFI
B2 | 27 MFI
B3 | 28 MFI
B4 | 60 MFI
B5 | 49 MFI
B6 | 24 MFI
B7 | 65 MFI
B8 | 21 MFI
B9 | 67 MFI
B10 | 71 MFI

target: Bt-MERS.hFc (mAb2664-L2) (MERS-CoV); experiment: Luminex, supernatant

Binder | MFI
B1 | 44 MFI
B2 | 30 MFI
B3 | 29 MFI
B4 | 42 MFI
B5 | 40 MFI
B6 | 29 MFI
B7 | 46 MFI
B8 | 26 MFI
B9 | 42 MFI
B10 | 49 MFI

target: SARS-CoV-2-S-RBD-mmH (RBD of SARS-CoV-2 spike, amino acids 319-541, with a 6x histidine tag and two (SARS-CoV-2)); experiment: ELISA, RBD-mmH coated, supernatant 1:50, a-hFc detection

Binder | Binding Signal (absorbance at 450 nm)
B11 | 2.52 absorbance at 450 nm
B12 | 2.54 absorbance at 450 nm
B13 | 2.35 absorbance at 450 nm
B14 | 2.6 absorbance at 450 nm
B15 | 2.45 absorbance at 450 nm
B16 | 0.716 absorbance at 450 nm
B17 | 2.69 absorbance at 450 nm
B18 | 2.54 absorbance at 450 nm
B19 | 0.421 absorbance at 450 nm
B20 | 2.68 absorbance at 450 nm
B21 | 3.05 absorbance at 450 nm
B22 | 3.12 absorbance at 450 nm

Substitutions are numbered along the chain they refer to.
